A mixed list of measured activities; the numbers were collected in NIAID ChemDB.

All rows: whole-cell or culture tests; species: Candida krusei; read by: broth dilution; endpoint: MIC

Conditions beyond the fields shown may differ between rows. An empty or dashed field is not shown.

structure | conditions | strain or isolate | value
OC(CCn1ccnc1)c1cccc(C(O)c2ccc(Cl)c(Cl)c2)c1 | - | RTCC 1090 | >64 µg/mL
CCCC[C@@H](C)/C=C(C)/C=C(\C)C(=O)N/C(=C/[C@@](C)(O)/C=C/C=C/C=C/C(=O)NC1=C(O)CCC1=O)C(=O)[C@@H]1CO1 | - | 1 | 25 µM
CC(C)(O)c1cn(-c2ccc(Cl)cc2)nn1 | - | URM 934 | 256 µg/mL
CCCCCCCCCCCCCCCC(=O)NC(CCCCN)C(=O)NC(CCCCN)C(N)=O | - | 4153 | 1 µg/mL
CC(NC(=O)C(N)Cc1ccccc1)C(=O)NC(Cc1ccc(O)cc1)C(=O)O | - | ATCC 6258 | 348 µg/mL
CC1=C2C3=C4[C@](C)([C@@H]5C[C@@H]5[C@@]4(O)C[C@@H]4[C@]35OC(=O)C3=C5C[C@H]5[C@](O)(COC(=O)/C(C)=C/COC(=O)CCC(=O)OC3)[C@H]3C[C@H]3[C@]45C)[C@H](O)[C@]2(O)OC1=O | - | ATCC 6258 | >256 µg/mL
CCOc1ccc2nc3cc(N=C4NC(=O)/C(=C\c5ccc([N+](=O)[O-])o5)S4)ccc3c(N)c2c1 | - | - | 62.5 µg/mL
CCCCCCCCCCCC[n+]1cccc2ccccc21 | 24 h | E28 | 0.01562 µg/mL
O=C1c2ccccc2CC1Cn1ccnc1 | - | RTCC 1001 | 64 µg/mL
C/C1=C\C(=O)c2c(C)coc2C/C(C)=C/CC1 | - | ATCC 6258 | >256 µg/mL
C/C(=N\NC([S-])=Nc1ccccc1Cl)c1ccccn1.CCC[CH2][Sn+3] | - | ATCC 200298 | 29.06 µM
O=C(/C=C/c1c(Cl)cccc1Cl)c1c[nH]c2ccccc12 | - | NRRL Y-7179 | 200 µg/mL
Nc1scc2c1c(=O)oc1ccccc12 | - | ATCC 6258 | 128 µg/mL
Nc1[nH]c(=O)ncc1F | 48 h | NBRC 1395 | 16 µg/mL
O=C(/C=C/c1ccc(Cl)cc1Cl)c1c[nH]c2ccccc12 | - | NRRL Y-7179 | 200 µg/mL
CCOC(=O)c1c(N)oc2cc(Cl)c(O)cc12 | - | KCCM 11655 | 3.2 µg/mL
COc1cc(NC(C)CCCNC(=O)CCC(NC(=O)[C@H](N)CCCCN)C(=O)O)c2nc(C(C)(C)C)ccc2c1 | - | - | >20 µg/mL
COC(=O)/C(C)=C1\C(=O)[C@H](O)[C@]2(C)C3=C1[C@]14OC(=O)C5=C1C[C@H]1[C@](O)(COC(=O)/C(C)=C/COC(=O)CCC(=O)OC5)[C@H]5C[C@H]5[C@]1(C)[C@@H]4C[C@]3(O)[C@H]1C[C@H]12 | - | ATCC 6258 | 64 µg/mL
Cc1nc2c(s1)C(=O)C(Nc1ccc(F)cc1)=C(Cl)C2=O | - | KCCM 11655 | 3.2 µg/mL
O=C(CCn1ccnc1)c1cccc2ccccc12 | - | RTCC 1001 | >64 µg/mL
CCC(C)CC(C)CCCCCCCCC(=O)N[C@H]1C[C@@H](O)[C@H](NCCN)NC(=O)[C@@H]2[C@@H](O)CCN2C(=O)[C@H]([C@H](O)CCN)NC(=O)[C@H]([C@H](O)[C@@H](O)c2ccc(O)cc2)NC(=O)[C@@H]2C[C@@H](O)CN2C(=O)[C@H]([C@@H](C)O)NC1=O | - | C245 | 0.125 µg/mL
Cc1nc2c(s1)C(=O)C(Nc1ccc(C)c(C)c1)=C(Cl)C2=O | - | KCCM 11655 | 6.3 µg/mL
O=C(CCn1ccnc1)c1ccc(-c2ccccc2)cc1 | - | RTCC 1090 | 8 µg/mL
Nc1[nH]c(=O)ncc1F | - | KCCM 11655 | 3.2 µg/mL
COC(=O)c1cc(O)c(O)c2oc3cc(OC)cc(O)c3c(=O)c12 | - | ATCC 6258 | 15.7 µg/mL
COC(=O)c1c(N)oc2cc(Cl)c(O)cc12 | - | KCCM 11655 | 3.2 µg/mL
OC(CCn1ccnc1)c1ccc(-c2ccccc2)cc1 | - | RTCC 1090 | >64 µg/mL
Cc1ccc(N2N=C(c3c[nH]c4ccccc34)CC2c2cc(Cl)ccc2Cl)cc1 | - | NRRL Y-7179 | 50 µg/mL
CC(C)S(=O)(=O)N1CCN(c2cnn(-c3cc(F)cc(F)c3)c(=O)c2OC2CCC(F)C2)CC1 | - | C245 | 1 µg/mL
C/C(=N\NC([S-])=Nc1ccccc1[N+](=O)[O-])c1ccccn1.CCC[CH2][Sn+3] | - | ATCC 200298 | 7.13 µM
O=C(CCn1ccnc1)c1cccc(C(O)c2ccc(Cl)cc2)c1 | - | RTCC 1001 | 64 µg/mL
Cc1nc2c(s1)C(=O)C(Nc1cccc(F)c1)=C(Cl)C2=O | - | KCCM 11655 | 100 µg/mL
C/C(=N\NC([S-])=Nc1ccccc1F)c1ccccn1.CCC[CH2][Sn+3] | - | ATCC 200298 | 14.98 µM
COC(=O)c1c(N)oc2c(C)c(C)c(O)cc12 | - | KCCM 11655 | 3.2 µg/mL
NC(Cc1ccccc1)C(=O)CC(CC1C=Nc2ccccc21)C(=O)NC(Cc1cccc(O)c1)C(=O)O | - | ATCC 6258 | 382 µg/mL
Cc1ccc(N2N=C(c3c[nH]c4ccccc34)CC2c2ccc(Cl)c(Cl)c2)cc1 | - | NRRL Y-7179 | 50 µg/mL
CC1=C2C3=C4[C@](C)([C@@H]5C[C@@H]5[C@@]4(O)C[C@@H]4[C@]35OC(=O)C3=C5C[C@H]5[C@](O)(COC(=O)/C(C)=C/COC(=O)CCC(=O)OC3)[C@H]3C[C@H]3[C@]45C)[C@@H](O)[C@]2(O)OC1=O | - | ATCC 6258 | >256 µg/mL
O=C(CCn1ccnc1)c1ccc2ccccc2c1 | - | RTCC 1001 | >64 µg/mL

For reference, 4 entries again:

structure | conditions | strain or isolate | value
OC(CCn1ccnc1)c1cccc(C(O)c2ccc(Cl)c(Cl)c2)c1 | - | RTCC 1090 | >64 µg/mL
CCCCCCCCCCCCCCCC(=O)NC(CCCCN)C(=O)NC(CCCCN)C(N)=O | - | 4153 | 1 µg/mL
CC1=C2C3=C4[C@](C)([C@@H]5C[C@@H]5[C@@]4(O)C[C@@H]4[C@]35OC(=O)C3=C5C[C@H]5[C@](O)(COC(=O)/C(C)=C/COC(=O)CCC(=O)OC3)[C@H]3C[C@H]3[C@]45C)[C@@H](O)[C@]2(O)OC1=O | - | ATCC 6258 | >256 µg/mL
Nc1[nH]c(=O)ncc1F | 48 h | NBRC 1395 | 16 µg/mL